Results of unrelated studies side by side (data: NIAID ChemDB).

Shared fields: whole-cell or culture tests; agent: HIV-1

a–b is a range or a potency band.

Cc1cc(C)cc(Cc2c(I)c(=O)[nH]c(=O)n2COCc2ccccc2)c1 ; strain: SF33 ; method: p24 / ELISA ; endpoint: EC50 ; cell line: MT-4 ; result: 0.004 µM
O=[N+]([O-])c1ccc[n+]([O-])c1SCc1ccccc1 ; strain: IIIB ; method: syncytia ; endpoint: EC50 ; cell line: C8166 ; result: 2.8 µg/mL
CC(C)C1=C2[C@H]3CC[C@@H]4[C@@]5(C)CC[C@H](OC(=O)CC(C)(C)C(=O)O)C(C)(C)[C@@H]5CC[C@@]4(C)[C@]3(C)CC[C@@]2(NC(=O)Nc2cncnc2)CC1=O ; strain: IIIB ; method: RT activity ; endpoint: EC50 ; cell line: MT-2 ; conditions: 30% human serum ; result: <0.199 µM
CN(C)C(=O)C(=O)N(C)C1CN(C2CCCC2)CCn2c1nc(C(=O)NCc1ccc(F)cc1)c(O)c2=O ; method: p24 ; endpoint: EC95 ; cell line: MT-4 ; result: <1 µM
CCc1c(Cc2cc(C)cc(C)c2)n(Cc2ccc(C#CCF)cc2)c(=O)[nH]c1=O ; strain: IIIB ; mutations: EFV:K103R+V179D+P225H ; method: MTT ; endpoint: EC50 ; cell line: MT-4 ; result: >2 µM
CC(C)C1=C2C3CCC4[C@@]5(C)CC[C@H](OC(=O)CC(C)(C)C(=O)O)C(C)(C)C5CC[C@@]4(C)[C@]3(C)CC[C@@]2(NC(=O)CN2CCC2)CC1=O ; strain: IIIB ; method: RT activity ; endpoint: EC50 ; cell line: MT-2 ; conditions: 30% human serum ; result: <0.199 µM
Cc1cc(C)c(Oc2nc(Nc3ccc(C#N)cc3)nc3c(C)csc23)c(C)c1 ; strain: Y181C ; method: luciferase ; endpoint: EC50 ; cell line: HeLa ; result: 0.01–0.1 µM
Cc1ccc(C)c(CSc2c(Cl)ccc[n+]2[O-])c1 ; strain: IIIB ; method: syncytia ; endpoint: EC50 ; cell line: MT-2 ; result: 0.1 µg/mL
C=C(C)COCn1c(Cc2ccccc2)c(CO)c(=O)[nH]c1=O ; strain: Clinical isolates ; mutations: Y181C ; method: MTT ; endpoint: EC50 ; cell line: MT-4 ; result: >20 µM
Cc1cn([C@H]2C[C@H](N=[N+]=[N-])[C@@H](CO)O2)c(=O)[nH]c1=O ; strain: IIIB ; method: syncytia / visual reading ; endpoint: EC50 ; cell line: C8166 ; result: 0.00324 µg/mL
CCc1c(Cc2cc(C)cc(C)c2)n(COCCF)c(=O)[nH]c1=O ; method: MTT ; endpoint: EC50 ; cell line: MT-4 ; result: 0.006 µM
Cc1ccc(C)c(C(C)S(=O)(=O)c2ccc(C)c[n+]2[O-])c1 ; strain: IIIB ; method: syncytia ; endpoint: EC50 ; cell line: C8166 ; result: ≥4 µg/mL
O=C(CCC(=O)n1cnc2c([N+](=O)[O-])cccc21)n1cnc2c([N+](=O)[O-])cccc21 ; strain: ADA5 ; method: luciferase ; endpoint: EC50 ; cell line: TZM-bl ; result: 15.4 µM
Cc1cc(CNC(=O)c2nc3n(c(=O)c2O)CCN(CC2CC2)CC3N(C)C(=O)C(=O)N(C)C)ccc1F ; method: p24 ; endpoint: EC95 ; cell line: MT-4 ; result: <1 µM
CC(C)C1=C2C3CCC4[C@@]5(C)CC[C@H](OC(=O)[C@H]6CC[C@@](C)(C(=O)O)C6(C)C)C(C)(C)C5CC[C@@]4(C)[C@]3(C)CC[C@@]2(N)CC1=O ; strain: IIIB ; method: RT activity ; endpoint: EC50 ; cell line: MT-2 ; conditions: 30% human serum ; result: <0.199 µM
Cc1cn(CC(=O)Nc2ccccn2)c(=O)[nH]c1=O ; strain: IIIB ; method: luciferase ; endpoint: EC50 ; cell line: TZM-bl ; result: 23 µM
Cc1ccc(C)c(C(Cl)S(=O)(=O)c2cc(C)cc[n+]2[O-])c1 ; strain: IIIB ; mutations: RT-L100I ; method: syncytia ; endpoint: EC50 ; cell line: CEM ; result: >4 µg/mL
CN(C)C(=O)C(=O)N1CCn2c(nc(C(=O)NCc3ccc(F)cc3)c(O)c2=O)C1(C)C ; method: p24 ; endpoint: EC50 ; cell line: MT-4 ; result: <1 µM
CSCSc1nc(Cc2ccccc2)c(C)c(=O)[nH]1 ; strain: IIIB ; method: cytopathic effect / MTT ; endpoint: EC50 ; cell line: MT-4 ; result: 7 µM
CC(=O)N1CCn2c(nc(C(=O)NCc3ccc(F)cc3)c(O)c2=O)C1 ; method: p24 ; endpoint: EC50 ; cell line: MT-4 ; result: <50 µM
Cc1ccc(C)c(CS(=O)(=O)c2cccc[n+]2[O-])c1 ; strain: IIIB ; mutations: RT-V179D ; method: syncytia ; endpoint: EC50 ; cell line: CEM ; result: 8 µg/mL
CC(C)C1=C2C3CCC4[C@@]5(C)CC[C@H](OC(=O)CC(C)(C)C(=O)O)C(C)(C)C5CC[C@@]4(C)[C@]3(C)CC[C@@]2(NC(=O)OC2CCC2)CC1=O ; strain: IIIB ; method: RT activity ; endpoint: EC50 ; cell line: MT-2 ; conditions: 30% human serum ; result: <0.199 µM
Cc1cccc(CS(=O)(=O)c2cccc[n+]2[O-])c1 ; strain: IIIB ; method: syncytia ; endpoint: EC50 ; cell line: MT-2 ; result: 16 µg/mL
Cc1cc(C)c(Oc2nc(Nc3ccc(C#N)cc3)nc3sc4c(c23)CCCC4)c(C)c1 ; strain: Y181C ; method: luciferase ; endpoint: EC50 ; cell line: HeLa ; result: >0.1 µM
CC(=O)N1CCC(C(=O)N[C@@]23CC[C@]4(C)[C@H](CC[C@@H]5[C@@]6(C)CC[C@H](OC(=O)CC(C)(C)C(=O)O)C(C)(C)[C@@H]6CC[C@]54C)C2=C(C(C)C)C(=O)C3)CC1 ; strain: IIIB ; method: RT activity ; endpoint: EC50 ; cell line: MT-2 ; conditions: 30% human serum ; result: <0.199 µM
O=C(CCC(=O)Nc1ccc(Br)cn1)Nc1ccc(Br)cn1 ; strain: ADA5 ; method: luciferase ; endpoint: EC50 ; cell line: TZM-bl ; result: 63.08 µM
CCc1c(Cc2cc(C)cc(C)c2)n(Cc2ccc(I)cc2)c(=O)[nH]c1=O ; strain: IIIB ; mutations: K103N + Y181C ; method: MTT ; endpoint: EC50 ; cell line: MT-4 ; result: >43 µM
NC(N)=NCCC[C@H](N)C(=O)NC[C@@H]1OC(O[C@H]2[C@@H](O)[C@H](O[C@@H]3[C@@H](O)[C@H](NC(=O)[C@@H](N)CCCN=C(N)N)C[C@H](NC(=O)[C@@H](N)CCCN=C(N)N)[C@H]3O[C@H]3O[C@H](CNC(=O)[C@@H](N)CCCN=C(N)N)[C@@H](O)[C@H](O)[C@H]3NC(=O)[C@@H](N)CCCN=C(N)N)O[C@@H]2CO)[C@H](NC(=O)[C@@H](N)CCCN=C(N)N)[C@@H](O)[C@@H]1O ; strain: 2D ; method: p24 / RT activity ; endpoint: EC50 ; cell line: MT-2 ; result: 2.3 µM
Cc1cc(C#N)cc(C)c1Nc1nc(Nc2ccc(C#N)cc2)nc2c(C)csc12 ; strain: Y181C ; method: luciferase ; endpoint: EC50 ; cell line: HeLa ; result: <0.01 µM
CSCSc1nc(C(C)c2c(F)cccc2F)cc(=O)[nH]1 ; strain: IIIB ; method: cytopathic effect / MTT ; endpoint: EC50 ; cell line: MT-4 ; result: 0.1 µM
CCC(=O)c1cn(S(=O)(=O)c2ccc(OC)cc2)c2ccc(C#N)cc12 ; strain: IIIB ; method: syncytia / visual reading ; endpoint: EC50 ; cell line: C8166 ; result: 17.4 µg/mL
Cc1cc(C#N)cc(C)c1Oc1nc(Nc2ccc(C#N)cc2)nc2ccsc12 ; strain: L1001-K103N ; method: luciferase ; endpoint: EC50 ; cell line: HeLa ; result: >0.1 µM
CC(C)C(=O)N[C@@]12CC[C@]3(C)C(CCC4[C@@]5(C)CC[C@H](OC(=O)CC(C)(C)C(=O)O)C(C)(C)C5CC[C@]43C)C1=C(C(C)C)C(=O)C2 ; strain: IIIB ; method: RT activity ; endpoint: EC50 ; cell line: MT-2 ; conditions: 30% human serum ; result: <0.199 µM
CC1(C)c2nc(C(=O)NCc3ccc(F)cc3)c(O)c(=O)n2CCN1S(C)(=O)=O ; method: p24 ; endpoint: EC50 ; cell line: MT-4 ; result: <1 µM
O=C(Cn1ccc(=O)[nH]c1=O)Nc1ccc(Br)cn1 ; strain: ADA5 ; method: luciferase ; endpoint: EC50 ; cell line: TZM-bl ; result: 43 µM
O=C(NCc1ccc(F)cc1)c1nc2n(c(=O)c1O)CCOCC2 ; method: p24 ; endpoint: EC50 ; cell line: MT-4 ; result: <50 µM
Cc1ccc(C)c(C(C)S(=O)(=O)c2c(C)ccc[n+]2[O-])c1 ; strain: IIIB ; mutations: RT-Y188H ; method: syncytia ; endpoint: EC50 ; cell line: CEM ; result: 8.8 µg/mL
CCC(=O)c1cn(S(=O)(=O)c2ccc(CC)cc2)c2cc(C)ccc12 ; strain: IIIB ; method: syncytia / visual reading ; endpoint: EC50 ; cell line: C8166 ; result: 4 µg/mL
C=CCOCn1c(Cc2ccccc2)c(CF)c(=O)[nH]c1=O ; strain: Clinical isolates ; mutations: Y181C ; method: MTT ; endpoint: EC50 ; cell line: MT-4 ; result: >100 µM
CC(C)C1=C2C3CCC4[C@@]5(C)CC[C@H](OC(=O)CC(C)(C)C(=O)O)C(C)(C)C5CC[C@@]4(C)[C@]3(C)CC[C@@]2(NC(=O)[C@@H]2CCCN2C(C)C)CC1=O ; strain: IIIB ; method: RT activity ; endpoint: EC50 ; cell line: MT-2 ; conditions: 30% human serum ; result: <0.199 µM
CCC(=O)c1cn(S(=O)(=O)c2ccc(CC)cc2)c2ccc(C#N)cc12 ; strain: IIIB ; method: syncytia / visual reading ; endpoint: EC50 ; cell line: C8166 ; result: 59.1 µg/mL

ECn: concentration that inhibits the pathogen or its effect by n%. Conditions beyond the fields shown may differ between rows.